The experiment has as its target SARS-CoV RBD (residues 306-527) (SARS-CoV) (UniProt P59594). The experiment in a line: SPR. (In general: SPR reads the build-up and loss of mass on a sensor chip optically.)

As a reminder, the Kd is the constant that tells how readily two partners part at equilibrium. A low value points to a tighter complex.

Substance hare ACE2 (residues 1-615) displayed a Kd of 86.5 nM.

Take “rabbit ACE2 (residues 1-615), 293F-expressed (from UniProt G1TEF4)”: the Kd is 107 nM. This Kd and that of the substance before are within 1.5-fold of each other.
